# The supplement of paper PMC9931576
# Human monoclonal antibodies against the spike receptor-binding domain (heavy:light variable regions). IC50 against pseudoviruses bearing the spike of naturally observed variants; lower = stronger; >10 µg/ml means not reached at the top dose. No active / inactive call. The stated detection limit is 0.0005 µg/ml; values near or below 0.001 µg/ml lie at the floor of the assay.
# B1: BD55-6660 (protein)
# chain 1: QVQLVQSGAEVKKPGASVKVSCKASGYIFTSYYMHWVRQAPGQGLEWMGTINPSGGSANFAQKFQGRVTMTRDTSASTVYLELSSLRSEDTAVYYCARDGGSAASHYYYYMDVWGEGTTVTVSS
# chain 2: DIQMTQSPSSLSASVGDRVTITCRASQSISNFLNWYQQKPGKAPKVLIYAASTLQSGVPSRFSGSGSGTDFTLTINSLRPEDFATYYCQQSYTTPTWTFGQGTKVEVK
# B2: BD55-6666 (protein)
# chain 1: QVQLQESGPGLVKPSETLSLTCTVSGGSISTHYWSWIRQPPGKGLEWIGFFYTSETTNYNPSLKSRVTISVDTSKNRFSLKLTSVTAADTAVYYCARHYDYVGGSHLPGTYQYYGMDVWGQGTTVTVSS
# chain 2: NFMLTQPHSVSGSPGKTVTISCTANSGSIATNYVQWYQQRPGSAPTTVIYEDYHRPSGVPDRFSGSIDSSSNSASLTISGLKTEDEADYYCQSYDSTNHGVIFGGGTKLTVL
# B3: BD55-6667 (protein)
# chain 1: QVQLVESGGGVVQPGRSLRLACAASGFTFYSYTMHWVRQAPGKGLEWVAVISYDGNKKYYADSVKGRFTISRDNSKNTLYVQMSSLRAEDTAVYFCARELGFCGGTTCYTNDYWGQGTQVTVSS
# chain 2: DIQMTQSPSSLSASVGDRVTITCRASQTISNYLNWYQQKPGKAPKLLIYAASSLQNGVPSRFSGSGSGTDFTLTISSLQLEDFATYYCQQSNSIPRTFGQGTKLEIK
# B4: BD55-6668 (protein)
# chain 1: QLILQESGPGLVKPSGTLSLTCTVSGGSVSSPSFYGGWLRQPPGKGLQWMAIIDYSGITYYNPSLKSRVTVSVDTSRNRFSLKLSTVAATDTAVYYCARPRLISGFSGDWQGPTYYFDSWGQGTLVAVSS
# chain 2: SNVLTQPPSVSVAPGETAWITCGGSNIGTTSVHWYQQKPGQAPVVVVFDDSGRPSAIPERFSGSHSGNSATLTISRVEAGDEAEYYCQVWDTSRDLALFGGGTKLTVL
# B5: BD55-6670 (protein)
# chain 1: QVLLVQSGAEVKKPGASVKVSCKASGYTFSSSDINWVRQAAGQGLEWIGWMNPKSGNTGYARKFHGRVTMTRNTSINTAYMELSSLKSEDTAVYYCARERDAYNPGTFDFWGQGTMVTVSS
# chain 2: DIQMTQSPSSLSASVGDRVTVTCRASQNIRNYLSWYQQRPGKAPNILIFEASTLQSGVPSRFSGGGSGTDFTLTINSLQPEDFATYYCQQSYSTPPTFGQGTRVEIK
# B6: BD-566 (protein)
# chain 1: QVQLVESGGGVVQPGRSLRLSCAASGFTFRSYGMHWVRQAPGKGLEWVAVISKDGSNKYYADSVKGRFTISRDNSKNTLYLQWNSLRAEDTAVYYCARALVVPGAPRYYYYGMDVWGQGTTVTVSS
# chain 2: AIQLTQSPSSLSASVGDRVTITCRASQGISSALAWYQQRPGKAPKLLIYDASTLESGVPSRFSGSGSGTDFTLTISSLQPEDFATYYCQQFNTYPWTFGQGTKVELK
# B7: BD55-6678 (protein)
# chain 1: EVQLLESGGGLVQPGGSLRLSCAASGFSFNTYDMNWVRQAPGKGLEWVSVISGSGATTEYSDSVKGRFTISRDNSKNTLYLQMNSLRAEDTAVYYCAKNRRPEYDSDSMTGLDPWGQGTLVTVSS
# chain 2: EIVMTQSPATLSVSPGERATLSCRASQSVSRNLAWYQQKPGQTPRLLIYGASTRATGIPASFSASGSGTEFTLTIASLRSEDFAIYYCQQYNNWPLTFGGGTKVEIK
# B8: BD55-6691 (protein)
# chain 1: QVQLVQSGAEVKKPGASVKVSCKASGYTFTNYGITWVRQAPGQGLEWMGWISIYTHNTNNAQKLQGRVTMTTDTSTRTAYMELRSLRSDDTAVYYCARVYSHEDCSGGSCHFLGYYYGMDVWGQGTTVTVSS
# chain 2: QSVLTQPPSASGTPGQRVTVSCSGSSSNIGSKDGDWYQQLPGTAPKLLIYRNDQRPSGVPDRFSGSKSGTSASLVINGLRSEDEAEYYCAAWDDSLSGYVFGTGTKVTVL
# B9: BD55-6692 (protein)
# chain 1: EVQLVQSGAEVKKPGESLKISCKGSGYSFTSYWIGWVRQMPGKGLEWVGIIFPGDSDTSYSPSFQGQVTISADRSVSTAYLQWTSLKASDTAMYYCVKHGTPTHYGAYAGYYFDYWGQGTLVTVSS
# chain 2: QSALTQPRSVSGSPGQSVTISCTGTTSDVGGYNYISWYQQHPGKAPKLIIYDVTKRPSGVPDRFSGSKSANTASLTISGLQAEDEADYYCCSYAGKYTRVFGGGTKLTVL
# B10: BD55-1312 (protein)
# chain 1: QAQLVQSGTEVKKPGASVRVSCKASGYTFTGYYIHWVRQAPGQGLEWMGWINSLSGDTNYAQKFQGRVTMTRDTSISTAYMDLSRLRSDDTAVYYCARGPYYDYVYVWGSDRYAPHYFDYWGQGTLVTVSS
# chain 2: DIQLTQSPSFLSASVGDRVTISCRAGQGISSYLAWYQQKPGKAPKLLIYAASTLQYGVPSRFSGSGSGTEFTLTISSLQPEDFATYYCQQLNTYPLTFGGGTKVEIK
# B11: BD55-6698 (protein)
# chain 1: EVQLVQSGAEVRKPGESLKISCQTSGYSFSNYGIAWVRQMPGNGLEWMGIIYPDESGTRYSPSFQGQVSISADESISTAYLQWSSLKASDTAVYYCARHGGMLRHIDWQNNGMDVWGQGTRVTVSS
# chain 2: DIHMTQSPSSLSASVGDRITITCRASQGIGTYLHWYQQKPQKAPKLLIYGASTLQSGIPSRFSGGGSGTEFTLTISSLQPEDFATYYCQQSYSTPTWTFGQGTKVEVK
# B12: BD55-6705 (protein)
# chain 1: EVQLVQSGAEVKKSGESLKISCKGSADSFTIHWIGWVRQVPGKGLEWMGVIHPSDSDTRYSPSFQGQVTISADKSTSTAYLHWSSLKASDTATYYCASREWGYYYYGMDVWGQGTTVTVSS
# chain 2: DIQMTQSPSSVSASVGDRVTITCRASQGISNRLAWYQKKPGKAPKLLIYTASSVQSGVPSRFSGSGFGTDFTLTISSLQPEDFATYYCQQANTFPPTFGQGTRLEIK
# Molecular target: SARS-CoV-2 Omicron BA.1 spike pseudovirus
# Assay: pseudovirus neutralization IC50; higher = weaker neutralization
# Description: (§1)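 Single-round VSV luciferase pseudovirus mixed with antibody dilutions for 1 h and put on Huh-7 cells for about a day; IC50 from the dose curve.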
row,Binder,pseudovirus neutralization IC50 [µg/mL]
1,B1,> 10
2,B2,> 10
3,B3,> 10
4,B4,> 10
5,B5,> 10
6,B6,1.7
7,B7,0.342
8,B8,> 10
9,B9,> 10
10,B10,> 10
11,B11,> 10
12,B12,> 10

# Molecular target: SARS-CoV-2 Omicron BA.2 spike pseudovirus
# Assay: as above
# Description: as §1
row,Binder,pseudovirus neutralization IC50 [µg/mL]
1,B1,> 10
2,B2,> 10
3,B3,> 10
4,B4,> 10
5,B5,> 10
6,B6,2.64
7,B7,> 10
8,B8,> 10
9,B9,> 10
10,B10,> 10
11,B11,> 10
12,B12,> 10

# Molecular target: SARS-CoV-2 Omicron BA.2.75 spike pseudovirus
# Assay: as above
# Description: as §1
row,Binder,pseudovirus neutralization IC50 [µg/mL]
1,B1,> 10
2,B2,> 10
3,B3,> 10
4,B4,> 10
5,B5,> 10
6,B6,0.932
7,B7,> 10
8,B8,> 10
9,B9,> 10
10,B10,> 10
11,B11,> 10
12,B12,> 10

# Molecular target: SARS-CoV-2 Omicron BA.5 spike pseudovirus
# Assay: as above
# Description: as §1
row,Binder,pseudovirus neutralization IC50 [µg/mL]
1,B1,> 10
2,B2,> 10
3,B3,> 10
4,B4,> 10
5,B5,> 10
6,B6,7.39
7,B7,> 10
8,B8,> 10
9,B9,> 10
10,B10,> 10
11,B11,> 10
12,B12,> 10

# Molecular target: SARS-CoV-2 Omicron BQ.1.1 spike pseudovirus
# Assay: as above
# Description: as §1
row,Binder,pseudovirus neutralization IC50 [µg/mL]
1,B1,> 10
2,B2,> 10
3,B3,> 10
4,B4,> 10
5,B5,> 10
6,B6,> 10
7,B7,> 10
8,B8,> 10
9,B9,> 10
10,B10,> 10
11,B11,> 10
12,B12,> 10

# Molecular target: SARS-CoV-2 Omicron XBB spike pseudovirus
# Assay: as above
# Description: as §1
row,Binder,pseudovirus neutralization IC50 [µg/mL]
1,B1,> 10
2,B2,> 10
3,B3,> 10
4,B4,> 10
5,B5,> 10
6,B6,> 10
7,B7,> 10
8,B8,> 10
9,B9,> 10
10,B10,> 10
11,B11,> 10
12,B12,> 10

# Molecular target: SARS-CoV-2 early D614G spike pseudovirus
# Assay: as above
# Description: as §1
row,Binder,pseudovirus neutralization IC50 [µg/mL]
1,B1,> 10
2,B2,> 10
3,B3,0.992
4,B4,2.37
5,B5,> 10
6,B6,0.0041
7,B7,0.239
8,B8,> 10
9,B9,> 10
10,B10,0.0449
11,B11,> 10
12,B12,> 10
